Test results: US9079977B2, “Anti-trypanosomal peptides and uses thereof” (priority 2009, dated 2015)

Test: Parallax analysis of tryptophan depth in brominated PC liposomes
Conditions: for F1/F2 ± S.D. (tryptophan fluorescence with shallow / deep quencher): 500 nM peptide, 37° C., 22 hours

Sequence	F1/F2 ± S.D. (tryptophan fluorescence with shallow / deep quencher)	other results
SDLGAVISLLLGGRQLFW (derivative of SHP-1 having a tryptophan substitution at position 18) [SHP-1ΔW18, SHP-1 tryptophan variant, tryptophan at position 18]	0.9285 ± 0.1557	–
FHQIWAALLYFYGIILNSIY (amino acid sequence of small hydrophobic peptide -3 (SHP-3)) [Small hydrophobic peptide 3, derived from an apolipoprotein]	0.9202 ± 0.1260	tryptophan depth from membrane interface, position 1 (N-terminal tryptophan variant): inefficiently quenched; tryptophan depth below the interface, position 5 (SHP-3 native tryptophan): approximately 1.6 Å; tryptophan depth below the interface, position 13 (SHP-3 tryptophan variant): approximately 4.7 Å; tryptophan depth below the interface, C-terminal tryptophan (SHP-3 tryptophan variant, position 20): approximately 11.2 Å
FHQIGAALLYFYGIILNSIW (derivative of SHP-3 having a tryptophan substitution at position 20) [SHP-3ΔW20, SHP-3 tryptophan variant, tryptophan at position 20]	1.1620 ± 0.3194	–
WDLGAVISLLLGGRQLFA (derivative of SHP-1 having a tryptophan substitution at position 1) [SHP-1ΔW1, SHP-1 tryptophan variant, tryptophan at position 1]	0.8897 ± 0.1112	–
SDLGAVIWLLLGGRQLFA (derivative of SHP-1 having a tryptophan substitution at position 8) [SHP-1ΔW8, SHP-1 tryptophan variant, tryptophan at position 8]	0.9767 ± 0.0717	–
FHQIGAALLYFYWIILNSIY (derivative of SHP-3 having a tryptophan substitution at position 13) [SHP-3ΔW13, SHP-3 tryptophan variant, tryptophan at position 13]	0.9912 ± 0.0787	–
